# Primary screen of a compound library

Each number is a percent effect as filed. The controls that fix the scale are not given in the record; negative values are as filed. The entries come from a sample that favours strong results. A dash means the value is not listed here; it may have been measured.

A: 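Whole-cell growth test on Mycobacterium tuberculosis, read after 3 days in glucose-containing 7H9 medium; the read-out is not stated. Compounds at 500 µM. Direction is inferred from retests: higher values go with more growth inhibition. Size under these conditions: about 18,000 compounds, about 1,400 of them at 50% or above in at least one test.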
B: 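Growth of Mycobacterium tuberculosis over 4 days (cholesterol / DPPC medium with tyloxapol); the read-out is not stated. Compounds at 500 µM. Direction is inferred from retests: higher values go with more growth inhibition. Size under these conditions: about 18,000 compounds, about 900 of them at 50% or above in at least one test.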

compound,A,B
Cc1cc(N2CCOCC2CCO)ncn1 (stereo not drawn),-,-3.029%
COc1ccccc1CNC(=O)CC1CCS(=O)(=O)C1 (stereo not drawn),10.23%,-
COC(=O)c1cncc(C(=O)NCCc2ccsc2)c1,-,24.32%
NS(=O)(=O)NCCCc1ccc(Br)cc1F,82.56%,90.55%
NCc1cc(C2CC2)cs1,16.31%,-
NCCNS(=O)(=O)c1cccc2nsnc12,19.65%,-
CN(C)c1ncc(CN2CCCCC2CO)cn1 (stereo not drawn),-,1.424%
c1ccc(CNc2ccncc2)nc1,-,9.399%
C[C@@H]1CCNC[C@H](C)O1,-,-8.936%
Cc1cccc(NCC2CCCCN2)n1 (stereo not drawn),14.2%,-
NC(=O)CC1CCN(C(=O)Cc2ccc(Cl)cc2)CC1,51.56%,-
Cc1cccc(NC(C)Cn2cncn2)n1 (stereo not drawn),-9.363%,-
CCc1nnc(CNC(=O)c2ccc3c(c2)OCO3)s1,9.705%,-
O[C@H]1C[C@@H](c2cc(NCCc3ncc[nH]3)ncn2)C1,6.308%,-
Clc1cnn(C2CCNC2)c1 (stereo not drawn),23.24%,-
CC(=O)Nc1ccc(N2CCN(S(C)(=O)=O)CC2)cc1,1.583%,-
CC(=O)N(CCc1ccccc1)Cc1ccncc1,-,-1.363%
CN(C)CCCNCC(O)COc1ccccc1 (stereo not drawn),-,25.68%
CSCC1CCCN1Cc1cccc(N)n1 (stereo not drawn),20.16%,1.243%
CC[C@@H](O)CN1CCC(NC(=O)C2CCC2)CC1,5.56%,-
CCc1cc(=O)[nH]c(C2(N)CCCC2)n1,-,-4.162%
OC1(Cn2ccnn2)CCNC1 (stereo not drawn),-,-14.15%
COc1ccc(CCN)c(OC)c1,85.07%,93.73%
CC(=O)NCCCNCc1cccc(Cl)c1F,41.01%,19.07%
CCS(=O)(=O)NCCNC(=O)c1cc(C)cc(Br)c1,-,7.578%
NC(=O)C(c1ccccc1)N1CCCC1 (stereo not drawn),-0.9581%,-
Cc1ccc(S(=O)(=O)NCCN)cc1C(F)(F)F,69.51%,52.28%
NS(=O)(=O)c1ccc(F)c(C(=O)Nc2ccccc2)c1,54.33%,-
CCn1ncnc1CN1C[C@H](C2CC2)[C@@H](N)C1,12.12%,-
CNC1CCCNC1=O (stereo not drawn),-0.8677%,-
N#CCc1ccc(CO)cc1,8.551%,-9.457%
NCc1noc(-c2ccc(Cl)cc2F)n1,57.93%,59.14%
CC(C)C(CN)N1CCCC1 (stereo not drawn),-,-11.42%
CNC(=O)Cn1cnc(N)n1,-,3.276%
CCc1noc(CN2CCC(CC(N)=O)CC2)n1,-,-5.338%
O=C(CCN1CCC(C(F)(F)F)CC1)N1CCOCC1,-4.549%,-
CCOCC(=O)NC(C)c1c(F)cccc1OC (stereo not drawn),76.1%,74.98%
COc1ccc(NS(=O)(=O)N(C)C)c(Br)c1,52.73%,-
NC1CCCN(CCS(=O)(=O)c2ccc(Br)cc2)C1 (stereo not drawn),20.09%,24.9%
NC(=O)C1CCCN(S(=O)(=O)Cc2ccc(Cl)cc2)C1 (stereo not drawn),-,8.986%
COc1cc(NCC2(N(C)C)CCSC2)ncn1 (stereo not drawn),-,2.668%
CCC[C@H]1CN(C(=O)CCn2ccnc2CC)C[C@@H]1N,12.48%,-
CC(Cn1ccnc1)NC(=O)Cn1cc(Br)ccc1=O (stereo not drawn),-7.602%,-
CN(CC(=O)N(C)C)Cc1nc2ccccc2o1,35.56%,-
CC(C)(O)CN1CCC(N)CC1,-8.296%,-
NCc1cnn(-c2ccc(Cl)cc2)c1,38.41%,30.67%
COCC(C)Oc1cc(C)ccc1CN (stereo not drawn),64.36%,-

Repeated from the top, 4 entries:

* Cc1cc(N2CCOCC2CCO)ncn1 (stereo not drawn) | B: -3.029%
* COc1ccccc1CNC(=O)CC1CCS(=O)(=O)C1 (stereo not drawn) | A: 10.23%
* COC(=O)c1cncc(C(=O)NCCc2ccsc2)c1 | B: 24.32%
* NS(=O)(=O)NCCCc1ccc(Br)cc1F | A: 82.56%; B: 90.55%

Source: ChEMBL document CHEMBL3988442, “University of Dundee, Small-Polar-MMV Screening Library” (2021).